Tested on: SARS virus
Assay: Inhibition of SARS virus cytopathic effect in Vero cells (MTT assay)
Type: cell-based, SARS-associated coronavirus

| SMILES | SI (Selection Index) = CC50/EC50 |
| --- | --- |
| CC1(C)[C@@H](O[C@H]2O[C@H](C(=O)O)[C@@H](O)[C@H](O)[C@H]2O[C@@H]2O[C@H](C(=O)O)[C@@H](O)[C@H](O)[C@H]2O)CC[C@]2(C)[C@H]3C(=O)C=C4[C@@H]5C[C@@](C)(C(=O)O)CC[C@]5(C)CC[C@@]4(C)[C@]3(C)CC[C@@H]12 [Glycyrrhizin, glycyrrhizin] | >66 |
| Cc1c(O)cccc1C(=O)N[C@@H](CSc1ccccc1)[C@H](O)CN1C[C@H]2CCCC[C@H]2C[C@H]1C(=O)NC(C)(C)C [Nelfinavir, nelfinavir] | 301.6 |

— patent US7495011B2 (priority 2003, dated 2009)
